The record followed here is paper PMC12391934, “Palladium-Catalyzed C–H Arylation of Quinoidal Scaffolds Through Homogeneous and Heterogeneous Pathways: Advancing Toward Trypanocidal Prototypes” (ACS Omega, 2025).

For data set [1], the system named is trypomastigote forms of Trypanosoma cruzi (Y strain). As to the kind of experiment: Trypanocidal assay, bloodstream trypomastigotes, 5% of blood at 4 °C. It is filed as cell-based. The settings on record: first SI column, matches LC50/24 h divided by IC50/24 h at 5% of blood. Here is the method: 5% of blood at 4 °C: For all the experiments, stock solutions of the compounds were prepared in dimethyl sulfoxide, with the final concentration of the solvent never exceeding 0.5%, concentration known to exert no toxicity to the parasite or host cells. Bloodstream trypomastigotes of Y strain were obtained from infected Swiss Webster mice at the peak of parasitemia by differential centrifugation process. The parasites (5 × 10^6 parasites per mL) plus 5% of blood were incubated at 4 °C for 24 h in 5% CO2 atmosphere in absence or presence of the compounds. […] At least three independent experiments were performed, and the mean and standard deviation were calculated. The standard drug Bz was used as control.

For data set [2] the test system is unchanged. The data set can be described thus: Trypanocidal assay, bloodstream trypomastigotes, 0% of blood at 37 °C. It is filed as cell-based. To be noted: second SI column, matches LC50/24 h divided by IC50/24 h at 0% of blood. On the procedure:
0% of blood at 37 °C: The experiments were performed with the Y strain of T. cruzi.^11 Stock solutions of the compounds were prepared in dimethylsulfoxide (DMSO), with the final concentration of the latter in the experiments never exceeding 0.1%. […] Bloodstream trypomastigotes were obtained from infected Albino Swiss mice at the peak of parasitemia by differential centrifugation. The parasites were resuspended to a concentration of 10 × 10^6 cells/mL in DMES medium. This suspension (100 µL) was added to the same volume of each of the compounds, which had been previously prepared at twice the desired final concentrations. The incubation was performed in 96-well microplates (Nunc Inc., Rochester, USA) at 37 °C for 24 h. Benznidazole (Lafepe, Brazil), the standard drug for treatment of chagasic patients, was used as control.

Structures are written as SMILES.

In data set [1], `Cc1ccc(C2=CC(=O)c3ccccc3C2=O)cc1` [3a] gave an SI of 0.68.
The same measure, in the same setting: then `Cc1cccc(C2=CC(=O)c3ccccc3C2=O)c1` [3b], with 0.37.
Turning to `O=C1C=C(c2ccccc2)C(=O)c2ccccc21` [3d], the values for the SI in data set [1] and in data set [2] were 0.37 and 4.45, respectively.
In turn, `COc1ccc(C2=CC(=O)c3ccccc3C2=O)cc1` [3e] registered an SI in data set [1] of 0.71.
For the molecule `COc1cccc(C2=CC(=O)c3ccccc3C2=O)c1` [3f], the SI is listed as 0.27 in data set [1] and 2.15 in data set [2].
As to `O=C1C=C(c2ccc(C(F)(F)F)cc2)C(=O)c2ccccc21` [3g], the SI in data set [1] was found to be 0.22.
Same read-out and setting: in the case of `COC(=O)c1ccc(C2=CC(=O)c3ccccc3C2=O)cc1` [3h] it was 0.67; in that of `Cc1cc([N+](=O)[O-])ccc1C1=CC(=O)c2ccccc2C1=O` [3i], 0.17.
Consider `Cc1ccc(C2=CC(=O)c3c(O)cccc3C2=O)cc1` [3l], for which the SI in data set [1] is 0.33; in data set [2] it was 15.48.
On the same counts, the results for `O=C1C=C(c2ccccc2)C(=O)c2c(O)cccc21` [3n] are 0.47 and 9.27.
